Our source for the inhibition values is PubChem BioAssay AID624268 (The Scripps Research Institute Molecular Screening Center, 2012).

The term inhibition denotes the relative decrease from the control value, in per cent.

This is a selection; strong and weak results do not stand in their true shares. Active and inactive are the calls of the source.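 The calls were made as follows: active = inhibition above a per-plate cutoff of the control wells' mean inhibition plus 3 SD (cut at about 5.5% in these data); inactive = the rest.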

The test system of this experiment is methionyl-tRNA synthetase (Trypanosoma brucei brucei). The experiment is described as follows: T. brucei MetRS inhibitors, primary screen, biochemical, luminescence (AID 624268).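 Also: 0% = DMSO wells median and 100% = median of wells with control inhibitor compound.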 To be noted: purified T. brucei MetRS, ATP depletion, Kinase-Glo luminescence; at 11.9 µM; active compounds read high. In outline: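 assay system = parasite MetRS enzyme | timing = 15 min preincubation, 2 h reaction, all 25 °C | evaluation = percent inhibition relative to median high and low control wells | medium = HEPES buffer containing pyrophosphatase, BSA, spermine, DTT | compound = single dose, 11.9 µM final nominal, 0.9% final DMSO | detection = Kinase-Glo luminescence, ATP depletion format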
With `COc1ccc(N/C(=N/P(=O)(N2CCOCC2)N2CCOCC2)N2CCOCC2)cc1`, the inhibition is inactive: -0.5%.
As for `O=P1(N(CCCl)CCCl)Nc2ccccc2N1`, the figure is inactive: -0.28%.
As for `O=P1(N(CCCl)CCCl)OCCCN1CCCl` (stereo unspecified), the figure is inactive: -0.07%; as for `COc1cc(I)ccc1[As](=O)(O)O`, inactive: 0.26%; as for `COc1ccc2nc(NP(=O)(c3ccccc3)c3ccccc3)sc2c1`, inactive: 0.58%.
With `Cc1c2c(nc3ccccc13)SC(C(Cl)Cl)C2` (stereo unspecified), the inhibition was inactive: 0.17%.
As for `Cc1cc(=O)[nH]c(N[N+](=O)[O-])n1`, the figure is inactive: -0.68%.
As to `O=C(OC1CN2CCC1CC2)C12CC3CC(CC(C3)C1)C2` (stereo unspecified), the inhibition was inactive: 0.04%.
Under `CCC(C)N(CC(C)C)C(=S)SC(NC(C)=O)C(Cl)(Cl)Cl` (stereo unspecified) stands inactive: 0.53%; under `CSc1ccc(Nc2c([N+](=O)[O-])cc([N+](=O)[O-])cc2[N+](=O)[O-])cc1`, inactive: -0.13%.
Take `O=C(OC1CN2CCC1CC2)c1cccc([N+](=O)[O-])c1` (stereo unspecified): the inhibition is inactive: -0.93%.
As for `CCOC(=O)c1ccc(NC(=O)C(C)(CCl)SC)cc1` (stereo unspecified), the figure is inactive: -0.45%; as for `O=C(O)C(=O)c1ccc(N(CCCl)CCCl)cc1`, inactive: 0.23%; as for `O=C(Nc1ccncc1[N+](=O)[O-])c1ccc([N+](=O)[O-])cc1[N+](=O)[O-]`, inactive: -0.87%.
Under `O=C(COc1ccccc1)OC1CN2CCC1CC2` (stereo unspecified) stands inactive: 0.12%.
As for `COC(=O)C1(C)COP(=O)(N2CCCC2)OC1` (stereo unspecified), the figure is inactive: -1.01%; as for `COP1(=S)c2c(C)nn(CCC#N)c2N=C(c2ccc(F)cc2)N1C` (stereo unspecified), inactive: -0.44%.
For the compound `O=P(Nc1ccccn1)(c1cccc2ccccc12)c1cccc2ccccc12`, the inhibition was inactive: 0.28%.
For `Cc1cc(SC(NC=O)C(Cl)(Cl)Cl)ncn1` (stereo unspecified), the inhibition was inactive: -1.06%.
Under `O=[N+]([O-])c1ccc(Nc2ccc(Oc3ccc([N+](=O)[O-])cc3[N+](=O)[O-])cc2)c([N+](=O)[O-])c1` stands inactive: 0.92%.
Under `CCOC(=O)Nc1cccc([As](=O)(O)O)c1` stands inactive: -1.75%.
Under `COP(=O)(OC)N1CC1c1ccccc1` (stereo unspecified) stands inactive: 0.09%; under `Cc1cc(SC(NC(=O)c2ccccc2)C(Cl)(Cl)Cl)nc(C(C)C)n1` (stereo unspecified), inactive: -1.41%; under `CCCCOc1ccc(C(=O)NCC2(N3CCCCC3)CCCCC2)cc1OC`, inactive: -0.09%.
On to `CCOC(=O)Nc1ccc([As](=O)(O)O)c(O)c1`, for which the inhibition is inactive: -0.32%.
As for `O=C(O)C(O)c1ccc(N(CCCl)CCCl)cc1` (stereo unspecified), the figure is inactive: -0.15%.
Consider `CC1CCNP(=O)(N(CCCl)CCCl)O1` (stereo unspecified), for which the inhibition was inactive: -0.3%.
As for `Nc1cccc([As](=O)(O)c2ccccc2)c1`, the figure is inactive: -0.47%; as for `O=P1(Nc2ccc(Br)cn2)COc2ccccc2OC1`, inactive: -0.18%; as for `NS(=O)(=O)c1cccc(NC(=O)COC(=O)C(O)(c2ccccc2)c2ccccc2)c1`, inactive: -0.09%.
Under `O=[As](O)(c1cccs1)c1cccs1` stands inactive: -1.17%.
As for `Cc1ccc(OCC(=O)OC2CN3CCC2CC3)cc1` (stereo unspecified), the inhibition was inactive: 0.27%.
`Cc1ccc(S(=O)(=O)N(CCCN)CCCc2c(C)nc(N)[nH]c2=O)cc1`: the inhibition was inactive: 0.67%.
Under `O=P1(Nc2ncccn2)COc2ccccc2OC1` stands inactive: -0.3%; under `CN(C)C1(CNC(=O)c2ccc(S(C)(=O)=O)cc2)CCCCC1`, inactive: -1.18%.
Under `CCCC1OP(=O)(Nc2ccccc2)OCC1CC` (stereo unspecified) stands inactive: -0.27%; under `O=C(/C=C/c1ccccc1)OC1CN2CCC1CC2` (stereo unspecified), inactive: 0.3%; under `CC1CCC(C(C)C)C(OP(=O)(Nc2ccccn2)c2ccccc2)C1` (stereo unspecified), inactive: -1.08%.
Under `Cc1ccc(C(=O)OC2CN3CCC2CC3)cc1` (stereo unspecified) stands inactive: -0.94%; under `Cc1nn(-c2ccccc2)c2c1P(=O)(N1CCOCC1)N(C)C(c1ccccc1)=N2` (stereo unspecified), inactive: -0.19%; under `CC(C)/C=N\N=C(\N)N[N+](=O)[O-]`, inactive: 2.66%.
Regarding `CN(C(=O)Cc1ccc(Cl)c(Cl)c1)[C@@H]1CCCC[C@H]1N1CCCC1`, the inhibition was inactive: -0.09%.
Under `CC1(CBr)Cn2c(nc3ccccc3c2=O)S1` (stereo unspecified) stands inactive: -0.57%.
As for `COc1ccccc1CNC(=O)COC(=O)C(O)(c1ccccc1)c1ccccc1`, the inhibition was inactive: -0.27%.
Under `CC(C)(C)C(=O)NC(Sc1ncccn1)C(Cl)(Cl)Cl` (stereo unspecified) stands inactive: -0.51%.
As for `O=P1(N(CCCl)CCCl)NCCC(C(F)(F)F)O1` (stereo unspecified), the figure is inactive: -0.29%; as for `Clc1n[nH]nc1-c1nn[nH][15n]1`, inactive: -0.76%.
Take `CCOP(=O)(NC(=NC(C)c1ccccc1)NC(C)c1ccccc1)OCC` (stereo unspecified): the inhibition was inactive: -0.85%.
As for `O=P1(Nc2ccccn2)COc2ccccc2OC1`, the figure is inactive: -1.15%.
Under `CCC1=CC2Cc3nc4ccc(Cl)cc4c(N)c3C(C1)C2` (stereo unspecified) stands active: 78.8%; under `CN(CCCl)Cc1cc(Cl)c(NC2=NCCN2)c(Cl)c1`, inactive: -0.38%.
Turning to `CCOP(=O)(Nc1ccc(C)cn1)OCC`, the inhibition was inactive: 0.18%.
Under `CCOP(=O)(Nc1cccc2ccccc12)OCC` stands inactive: -0.71%; under `COc1cc(C2NCCC3(OCCO3)C2(C)C)cc(OC)c1OC` (stereo unspecified), inactive: -1.21%; under `Nc1cccc2c([As](=O)(O)O)cccc12`, inactive: 0.48%.
Under `Cc1ccc(NCCc2c([N+](=O)[O-])cc([N+](=O)[O-])cc2[N+](=O)[O-])cc1` stands inactive: -0.43%.
As for `CCCOP(=S)(Nc1nc(N)cc(=O)[nH]1)OCCC`, the figure is inactive: 0.13%; as for `O=[As](O)(c1cccc(O)c1)c1cccc(O)c1`, inactive: -0.5%; as for `Cc1cccc(OCC(=O)OC2CN3CCC2CC3)c1` (stereo unspecified), inactive: -0.1%.
Take `O=C(OC1CN2CCC1CC2)c1ccc(Cl)cc1` (stereo unspecified): the inhibition is inactive: 0.4%.
Regarding `CS(=O)(=O)c1ccc(Cl)c(NC(=O)COC(=O)C(O)(c2ccccc2)c2ccccc2)c1`, the inhibition is inactive: 0.08%.
As for `COc1cc(C(=O)NCC2(N3CCOCC3)CCCCC2)cc(Cl)c1OC(C)C`, the figure is inactive: -0.77%.
Under `O=[As](O)(O)c1cccnc1` stands inactive: 0.01%; under `CN(C(=O)Cc1ccccc1)[C@@H]1CC[C@]2(CCCO2)C[C@H]1N1CCCC1`, inactive: -0.29%.
Under `CCOP1(=S)c2c(C)nn(CCC#N)c2N=C(c2ccc(F)cc2)N1C` (stereo unspecified) stands inactive: -1%; under `N#CCCN(C(=O)COC(=O)C(O)(c1ccccc1)c1ccccc1)c1ccc(F)cc1`, inactive: -0.48%.
For the compound `CN(C(=O)Cc1ccc(Cl)c(Cl)c1)[C@H]1CC[C@@]2(CCCO2)C[C@@H]1N1CCCC1`, the inhibition was inactive: -1.06%.
Under `CN(C)C(=O)c1cc([N+](=O)[O-])cc2c1-c1c(cc([N+](=O)[O-])cc1[N+](=O)[O-])C2=O` stands inactive: -1.42%; under `O=[N+]([O-])c1ccc2c(c1)nnn2O`, inactive: -1.18%.
As for `NC(=O)Nc1ccc([As](=O)(O)O)cc1`, the figure is inactive: -0.23%.
As for `Nc1ccccc1[As](=O)(O)c1ccccc1`, the figure is inactive: -0.62%.
As for `O=C(O)COc1ccc([As](=O)(O)O)cc1[N+](=O)[O-]`, the inhibition is inactive: -2.2%.
Under `O=P(Nc1nccs1)(c1ccccc1)c1nc2ccccc2s1` (stereo unspecified) stands inactive: 0.15%; under `O=P(Nc1nccs1)(Oc1ccccc1)Oc1ccccc1`, inactive: -0.23%.
As for `CCOP1(=S)c2c(C)nn(CCC#N)c2N=C(c2ccccc2F)N1C` (stereo unspecified), the figure is inactive: -0.21%.
Under `CS(=O)(=O)c1cc([N+](=O)[O-])c2no[n+]([O-])c2c1` stands inactive: 0.43%.
